Results published in US9492554B2, “Methods and compositions related to viral inhibition” (Clemson University Research Foundation (CURF), priority 2009, dated 2016).

Test system: TAR RNA
Experiment: ITC titration of TAR RNA with Neomycin
Assay type: binding, HIV-1

**Q.** neomycin was tested. Which ΔH (20° C.) did it give?
**A.** -22.1 ± 1.1 kcal/mol

**Q.** And the N (Neomycin (80 μM) injected to TAR RNA (4 μM/molecule) at 20° C.)?
**A.** 1.09 ± 0.04
